From patent US9061010B2, “Methods of treating a Flaviviridae family viral infection and compositions for treating a Flaviviridae family viral infection” (The Board of Trustees of the Leland Stanford Junior …, priority 2007, dated 2015)

System: infectious HCV clone (J6/JFH)
Assay: Real-time PCR assay of HCV replication in HCV-infected Huh7.5 cells
Conditions: read-out: EC50 against HCV replication in cells, FIG. 17D

Cc1cc2ncn(Cc3ccc(Cl)cc3)c2cc1C
EC50: 1 µM
